Measured values from several laboratories, pooled; numbers as filed in NIAID ChemDB.

Shared fields: whole-cell or culture tests; agent: Rhinovirus

A number after MIC or MFC names an inhibition level or a share of isolates.

compound	strain	read by	cells	measure	value
CSc1nsc(-c2ccc(OCCCc3ccccc3)cc2)c1C#N	Serotype 63 (group B)	cytopathic effect	HELA-OHIO	EC50	>20 µM
CCOc1cc(CCCOc2c(C)cc(-c3noc(C)n3)cc2C)on1	Serotype 86	cytopathic effect	HeLa	EC50	0.045 µg/mL
Cc1cc(CCCCCOc2c(Cl)cc(C3=NCCO3)cc2Cl)on1	TYPE 50	plaque count	HeLa	EC50	0.032 µg/mL
Cc1nc(-c2cc(C)c(OCCCc3cc(C(F)(F)F)no3)c(C)c2)no1	Serotype 14	cytopathic effect	HeLa	EC50	0.305 µg/mL
Cn1c2ccccc2c2nnc(SCCN3CCOCC3)nc21	1059	plaque count	WI-38	EC50	4 µg/mL
Cc1cc(CCCCCOc2cc(Cl)c(-c3nnc(C)o3)c(Cl)c2)on1	Serotype 2	-	-	MIC80	0.016 µg/mL
CS(=O)(=O)c1ccc(NCCc2ccc(Cl)cc2)nc1	TYPE 2	cytopathic effect	HeLa	EC50	3.1 µg/mL
CCN(CC)c1cc(-c2ccc(OC)cc2OC)on1	Serotype 9 (group B)	cytopathic effect	HeLa	EC50	43.7 µM
Cc1c(-c2ccccc2)n(-c2ccc(F)cc2)c2ccc(C(C)C)cc2c1=O	1A/E28	cytopathic effect	HELA-OHIO	EC50	>2 µg/mL
Fc1cccc(Cn2cnc3c(Nc4cccc(F)c4)nc(C(F)(F)F)nc32)c1	Serotype 29	plaque count	M-HELA	EC50	12 µM
CCCc1nc(-c2c(C)cc(OCCCc3ccc(CO)nn3)cc2C)no1	serotypes 3 4 5 9 16 18 38 66 75 67	cytopathic effect	HeLa	EC50	0.02 µg/mL
CS(=O)(=O)c1ccc(NCCc2ccc(Cl)c(Cl)c2)nc1	TYPE 2	cytopathic effect	HeLa	EC50	<1.3 µg/mL
Cc1cc(OCCCc2ccc(C(F)(F)F)nn2)cc(C)c1-c1noc(C(F)F)n1	serotypes 3 4 5 9 16 18 38 66 75 67	cytopathic effect	HeLa	EC50	0.03 µg/mL
CCCn1oc2cc(OCCC3CCN(c4ccc(C)nn4)CC3)ccc2c1=O	Serotype 2	cytopathic effect	MRC-5	EC50	0.133 µg/mL
N=C(N)c1ccc(C2CCc3cc(C(=N)N)ccc3O2)cc1	Serotype 1B	cytopathic effect	HeLa	EC25	40 µM
CCn1c2c(c(=O)c3cc(C(C)C)ccc31)Cc1ccccc1-2	50/A2#58	cytopathic effect	HELA-OHIO	EC50	0.2 µg/mL
CCOc1nc2ccc(OCCC3CCN(c4ccc(C)nn4)CC3)cc2s1	Serotype 2	cytopathic effect	MRC-5	EC50	0.007 µg/mL
Cc1cc(CCCOc2c(C)cc(-c3noc(C(F)(F)F)n3)cc2C)on1	Isolate 28	cytopathic effect / visual reading	OHIO HELA-I	EC50	0.02 µg/mL
CSc1nsc(-c2ccccc2)c1C#N	Serotype 89 (group B)	cytopathic effect	HELA-OHIO	EC50	>80 µM
CCOC(=O)c1ccc(OCCC2CCN(c3ccc(C)nn3)CC2)cc1	Serotype 59	cytopathic effect	WI-38	EC50	<0.1 µg/mL
CS(=O)(=O)c1ccc(Cc2ccc(Cl)c(Cl)c2)nc1	TYPE 68	cytopathic effect	HeLa	EC50	>10 µg/mL
CSc1nsc(-c2ccc(OCCOc3ccccc3)cc2)c1C#N	Serotype 14 (group A)	cytopathic effect	HELA-OHIO	EC50	>20 µM
Cc1cc(CCCCCOc2cc(Cl)c(-c3nnco3)c(Cl)c2)on1	Serotype 6	-	-	MIC80	7.06 µg/mL
CC(=O)c1ccc(CCCOc2cc(C)c(-c3noc(C(F)F)n3)c(C)c2)nn1	serotypes 3 4 5 9 16 18 38 66 75 67	cytopathic effect	HeLa	EC80	0.19 µg/mL
CCOc1cc(OC)ccc1-c1cc(N(CC)CC)no1	Serotype 51 (group B)	cytopathic effect	HeLa	EC50	17.1 µM
CCCCCCS(=O)(=O)c1ccc(Oc2ccc(C(=O)c3ccccc3)cc2)nc1	TYPE 64	cytopathic effect	HeLa	EC50	>10 µg/mL
Cn1c2ccccc2c2nnc(NCCCCO)nc21	2060	plaque count	WI-38	EC50	45 µg/mL
N#Cc1ccc(C2=Cc3ccccc3OC2)cc1	Serotype 1B	plaque count	HeLa	EC50	1.41 µM
CS(=O)(=O)c1ccc(Cc2ccc(F)cc2)nc1	TYPE 2	cytopathic effect	HeLa	EC50	>10 µg/mL
Cn1c2ccccc2c2nnc(N3CCOCC3)nc21	1059	plaque count	WI-38	EC50	100 µg/mL
CS(=O)(=O)c1ccc(Cc2ccccc2)nc1	TYPE 1A	cytopathic effect	HeLa	EC50	>10 µg/mL
C#CCOc1cc(OC)ccc1-c1cc(N(CC)CC)no1	Serotype 29 (group B)	cytopathic effect	HeLa	EC50	>40 µM
CC(=O)c1ccc(CCCOc2ccc(-c3noc(C(F)F)n3)c(C)c2)nn1	serotypes 3 4 5 9 16 18 38 66 75 67	cytopathic effect	HeLa	EC80	0.13 µg/mL
CN(C)c1nnc2c3ccccc3n(C)c2n1	33342	plaque count	WI-38	EC50	45 µg/mL
CSc1nsc(-c2ccc(OCCCOc3ccc([N+](=O)[O-])cc3)cc2)c1C#N	Serotype 29 (group B)	cytopathic effect	HELA-OHIO	EC50	>1 µM
Cc1ccc(N2CCC(CCOc3ccc4oc(C)nc4c3)CC2)nn1	Serotype 14	cytopathic effect	MRC-5	EC50	>0.5 µg/mL
CSc1nsc(-c2ccc(OCCCCOc3ccc(C#N)cc3)cc2)c1C#N	Serotype 51 (group B)	cytopathic effect	HELA-OHIO	EC50	>2 µM
CN(C)c1nc(C(F)(F)F)nc2c1ncn2Cc1ccccc1	Serotype 30	plaque count	M-HELA	EC50	>8 µM
N=C(N)c1ccc(C2=Cc3ccccc3OC2)cc1	Serotype 1B	cytopathic effect	HeLa	EC50	>40 µM
CC(=O)c1ccc(CCCOc2c(C)cc(-c3noc(C)n3)cc2C)o1	15 serotype mixtures	cytopathic effect	HeLa	EC50	<0.4 µM
CCn1c2ccccc2c2nnc(NCCCO)nc21	33342	plaque count	WI-38	EC50	20 µg/mL
CSc1nsc(-c2ccc(OC(C)(C)C)cc2)c1C#N	Serotype 39 (group B)	cytopathic effect	HELA-OHIO	EC50	5 µM
Cc1c(-c2ccccc2)n(-c2cccc(F)c2)c2ccc(C(C)C)cc2c1=O	29/5582	cytopathic effect	HELA-OHIO	EC50	0.08 µg/mL
Cc1cc(Cl)ccc1Cn1cnc2c(N(C)C)nc(C(F)(F)F)nc21	Serotype 30	plaque count	M-HELA	EC50	>8 µM
Cc1cc(CCCOc2c(C)cc(-c3nnn(C)n3)cc2C)on1	Serotype 16	plaque count	-	EC50	0.037 µg/mL
CN(C)c1nc(C(F)(F)F)nc2c1ncn2Cc1ccc([N+](=O)[O-])cc1	Serotype 31	plaque count	M-HELA	EC50	>8 µM
COc1ccc(-c2snc(SC)c2C#N)cc1	Serotype 29 (group B)	cytopathic effect	HELA-OHIO	EC50	>12 µM
CCO/N=C/c1ccc(OCCC2CCN(c3ccc(Cl)nn3)CC2)cc1	1963M-CV40 (LDL receptor group 62)	neutral red	KB	EC50	0.696 µM
COc1ccc(-c2cc(N(C)C)no2)c(O)c1	Serotype 2	cytopathic effect	HeLa	EC50	>427 µM
CSc1nsc(-c2ccc(OCCc3ccccc3)cc2)c1C#N	Serotype 89 (group B)	cytopathic effect	HELA-OHIO	EC50	0.4 µM
CCSc1nc2cc(OCCC3CCN(c4ccc(C)nn4)CC3)ccc2o1	Serotype 14	cytopathic effect	MRC-5	EC50	0.05 µg/mL
CS(=O)(=O)c1ccc(Cc2ccc(S(C)(=O)=O)cn2)cc1	TYPE 64	cytopathic effect	HeLa	EC50	>10 µg/mL
CN(C)c1nc(C(F)(F)F)nc2c1ncn2Cc1ccc(S(C)(=O)=O)cc1	TYPE 1B	plaque count	M-HELA	EC50	0.5 µM
CCSc1nc2ccc(OCCC3CCN(c4ccc(Cl)nn4)CC3)cc2o1	Serotype 2	cytopathic effect	MRC-5	EC50	0.008 µg/mL
CC(=O)c1coc(CCCOc2c(C)cc(-c3noc(C)n3)cc2C)c1	15 serotype mixtures	cytopathic effect	HeLa	EC80	0.4 µM
COc1ccc(Cn2cnc3c(N(C)C)nc(C(F)(F)F)nc32)cc1C	Serotype 21	plaque count	M-HELA	EC50	>8 µM
CS(=O)(=O)c1ccc(Oc2ccc(C(=O)c3ccccc3)cc2)nc1	TYPE 5	cytopathic effect	HeLa	EC50	10 µg/mL
Cc1cc(CCCOc2c(C)cc(-c3coc(C)n3)cc2C)on1	Serotype 14	plaque count	-	EC50	0.221 µg/mL
CS(=O)(=O)c1ccc(NCc2ccc(Cl)c(Cl)c2)nc1	TYPE 89	cytopathic effect	HeLa	EC50	1.3 µg/mL
CSc1nsc(-c2ccc(OCCOc3ccc(C#N)cc3)cc2)c1C#N	Serotype 72 (group A)	cytopathic effect	HELA-OHIO	EC50	>2 µM
Cn1c2ccc(Cl)cc2c2nnc(NCCCO)nc21	33342	plaque count	WI-38	EC50	45 µg/mL
N#Cc1ccc(Cn2cnc3c(Nc4cccc(F)c4)nc(C(F)(F)F)nc32)cc1	Serotype 5	plaque count	M-HELA	EC50	190 µM
COc1ccc(-c2cc(N3CCCC3)no2)c(O)c1	Serotype 72 (group A)	cytopathic effect	HeLa	EC50	>384 µM
N#Cc1ccc2c(c1)CC(c1ccccc1)CO2	Serotype 1B	cytopathic effect	HeLa	EC25	8 µM
Cc1ccccc1Cn1cnc2c(N(C)C)nc(C(F)(F)F)nc21	Serotype 13	plaque count	M-HELA	EC50	>8 µM
CCc1nc(-c2cc(C)c(OCCCc3cc(COC)no3)c(C)c2)no1	Serotype 25	cytopathic effect	HeLa	EC50	0.003 µg/mL

For reference, 8 entries again:

| compound | strain | read by | cells | measure | value |
|---|---|---|---|---|---|
| CCn1c2ccccc2c2nnc(NCCCO)nc21 | 33342 | plaque count | WI-38 | EC50 | 20 µg/mL |
| CC(=O)c1ccc(CCCOc2cc(C)c(-c3noc(C(F)F)n3)c(C)c2)nn1 | serotypes 3 4 5 9 16 18 38 66 75 67 | cytopathic effect | HeLa | EC80 | 0.19 µg/mL |
| Cn1c2ccc(Cl)cc2c2nnc(NCCCO)nc21 | 33342 | plaque count | WI-38 | EC50 | 45 µg/mL |
| Cc1c(-c2ccccc2)n(-c2cccc(F)c2)c2ccc(C(C)C)cc2c1=O | 29/5582 | cytopathic effect | HELA-OHIO | EC50 | 0.08 µg/mL |
| CSc1nsc(-c2ccc(OCCCOc3ccc([N+](=O)[O-])cc3)cc2)c1C#N | Serotype 29 (group B) | cytopathic effect | HELA-OHIO | EC50 | >1 µM |
| N#Cc1ccc2c(c1)CC(c1ccccc1)CO2 | Serotype 1B | cytopathic effect | HeLa | EC25 | 8 µM |
| CS(=O)(=O)c1ccc(NCCc2ccc(Cl)cc2)nc1 | TYPE 2 | cytopathic effect | HeLa | EC50 | 3.1 µg/mL |
| N#Cc1ccc(Cn2cnc3c(Nc4cccc(F)c4)nc(C(F)(F)F)nc32)cc1 | Serotype 5 | plaque count | M-HELA | EC50 | 190 µM |

ECn is the concentration giving n% inhibition of infection, replication or growth. Conditions beyond the fields shown may differ between rows. An empty or dashed field is not shown.